Measured values from publication PMC4726272.

Test system: OmpR-6His + RcsB-6His
Assay: EMSA
Details: both proteins together, 10 mM Tris pH 7.5, 50 mM NaCl, 0.5 mM DTT, 1 mM MgCl2, 2.5% glycerol, 20 min at room temperature, 50 ng DNA in 20 ul, 6% acrylamide-TBE gel, recombinant protein, protein details: His-tag (pET100/D-Topo),6xHis, label: none (ethidium bromide staining), probe letters rebuilt from the primers and the genome

Sequence | binding result (minimal amounts 100 ng OmpR and 200 ng RcsB in 20 ul) | binding result
CACATCTAGACGATGGTTATCTGCTCAAGGATATGGAACCGGAAGACCTGCTGGTGGCGCTGCATCAGGCCGCCGCCGGCAAAATGGTGCTCAGCGATGCCCTGACGCCGGTTCTGGCGGCCAGCCTGCGGGAAACGCGTAGCAGCGATACGCGGGATATCCAGCAACTGACCCCGCGGGAAAAAGATATCCTGAAGCTGATCGCCCAGGGTCTGCCCAACAAGGTCATCGCCCGTAAGCTGACGATTACCGAAAGCACGGTGAAAGTACACGTCAAACATCTGCTGAAAAAAATGAAATTGCGCTCCCGGGTGGAAGCCGCAGTCTGGGTGGTGCAAGAGAAGATTTTTTAACCGGCGGCGGCCGGACGCCGCCGGCCAGCACCGCCACGCCGATGTCGCTCTTACTTTTTGAGGCCAAAAATTACAGGAAAATACACCCACCTACACTTCTATACGTTTATTTGCGTTACGGCTGATAAAGTAACGCCCGTTCATGGTTTTTAGTACTTTATCGCCATTTTCCTAGATATTTCCCCATATTCCTTTCCTAGACTCACCTTGTTCGGCGTTTCATTGCGCTTTCGCCAGGCTTAACCGGAGGAAAAAGAGAATGAAAGTCAGAGAACGATATATTGGACTGGAATGGCTCCGGTTTCTGCTTGGATGAGCATGCTGTG (double strand) [opgC promoter region] | binds | 
AACTGACCAGCATGGGATTCTTCGCCACCAGTACTTTTTTTGTGTTATCCGGCTTTCTGCTGACGCACGTTTATCTGCGTGACGGCCAGTTGCGGGAACCCGCCCGACACTTTTTAGCCAAGCGGTTGTTTAACCTCTACCCGATTCATATCATCGGTCTGGTGTCATCCATCGTCGTGGTCAGCCTGATGCACTGGCTGGCGATTCCGCCGGAAGGTCAGGTCGCTAGCGCCCGCTTCGTGATTTACGACAGCAACGACCCCAGCGTCGCGCCGGAAACATTACGCCACTACATGGATAACGCTGAACTGGCTTTTAACGGCTTGTTGCAATTACTGATGTTGCAGGCGTGGAACCCCTACTTTCTGACCTTCAACGCGCCGTTGTGGTCGGTGTCGACATTGTTCTTCTTCTATTTGCTGTTCCCACTGCTGGCGCCGCGGCTGTTGGGCAGTCGTCACCCGCGCCTGTGGTTGATGGCGATGTTCGTGCTGTATTTACTGCCGCCGATATGGGTGATCTGGCATCAATTATATGGCGCGCCATACACCGGCCTGCTACAACGCAACCCC (double strand) [opgC mid-coding control fragment] |  | no binding

For at least one entry, the source does not settle the construct or the ends of the probe. Negatives hold for the conditions tested.
